Where two headings read alike, the source gives them in different places. Some results come without the dose or concentration used.
What was measured:
DC2.4 cells = format: cell-based, murine; conditions: LC-MRM
LET1 cells = format: cell-based, murine; conditions: LC-MRM

HA-41-49 (VTVTHSVNL)
direct presentation, epitope abundance (DC2.4 cells; DC2.4, replicate DC-2): 107.004
direct presentation, epitope abundance (DC2.4 cells; DC2.4, replicate DC-3): 79.3168
direct presentation, epitope abundance (LET1 cells; LET1, replicate LET-1): 42.8556
direct presentation, epitope abundance (LET1 cells; LET1, replicate LET-2): 35.4904
direct presentation, epitope abundance (LET1 cells; LET1, replicate LET-3): 53.2776
